{"source": "paper PMC2793005", "about": "“Dissecting the Role of Critical Residues and Substrate Preference of a Fatty Acyl-CoA Synthetase (FadD13) of Mycobacterium tuberculosis” (PLoS ONE, 2009)", "assay_in_all_cases": "purified protein", "details_in_all_cases": "pH 8.0; 37.0 °C", "key": {"[1]": {"system": "CC(C)(COP(=O)(O)OP(=O)(O)OC[C@H]1O[C@@H](n2cnc3c(N)ncnc32)[C@H](O)[C@@H]1OP(=O)(O)O)[C@@H](O)C(=O)NCCC(=O)NCCS"}, "CCCCCCCCCCCCCCCC(=O)O": {"system": "CCCCCCCCCCCCCCCC(=O)O"}, "[2]": {"system": "Nc1ncnc2c1ncn2[C@@H]1O[C@H](COP(=O)(O)OP(=O)(O)OP(=O)(O)O)[C@@H](O)[C@H]1O"}}}
{"substance": "(Mycobacterium tuberculosis H37Rv)", "values": [{"measurement": "Km", "setting": "[1]", "value": "130 ± 10", "unit": "µM"}, {"measurement": "Km", "setting": "CCCCCCCCCCCCCCCC(=O)O", "value": "19.79 ± 5.67", "unit": "µM"}, {"measurement": "Km", "setting": "[2]", "value": "240 ± 50", "unit": "µM"}]}
